Km and Ki data for two compounds are collected here from publication PMC1949145, “Kinetic Analysis of Yersinia pestis DNA Adenine Methyltransferase Activity Using a Hemimethylated Molecular Break Light Oligonucleotide” (2007).

Experiment [1] has as its target T1, Y. pestis Dam (His6-tagged) (Yersinia pestis, UniProt A0AAP0YVJ7). The experiment is described as follows: continuous DpnI-coupled break light fluorescence assay; hyperbolic fit. To be noted: read-out: Y. pestis; 33 nM hemimethylated oligonucleotide 1, 1.0 nM Dam, 2.5-200 µM AdoMet, Mg acetate, Tris-acetate pH 7.9 buffer, 37 °C.
Experiment [2] deals with T1, Y. pestis Dam (His6-tagged). In words: continuous DpnI-coupled break light fluorescence assay; replot of apparent Km. To be noted: read-out: Y. pestis; competitive analysis vs AdoMet (20-200 µM); 33 nM hemimethylated oligonucleotide 1, 1 nM Dam, Mg acetate, Tris-acetate pH 7.9 buffer, 37 °C.

pKi: −log10 of the molar value.

Consider `C[S+](CC[C@H](N)C(=O)O)C[C@H]1O[C@@H](n2cnc3c(N)ncnc32)[C@H](O)[C@@H]1O` (some centres unmarked), for which the Km in experiment [1] was 11.3 µM.

On to `Nc1ncnc2c1ncn2[C@@H]1O[C@H](CSCC[C@H](N)C(=O)O)[C@@H](O)[C@H]1O`, for which the pKi in experiment [2] is 5.16.
